Measurements from paper PMC6423129, “Activity and structural analysis of GRL-117C: a novel small molecule CCR5 inhibitor active against R5-tropic HIV-1s” (Scientific Reports, 2019).

Chains of the proteins cited; added tags and fusions are not shown.
UniProt P51681, whole entry: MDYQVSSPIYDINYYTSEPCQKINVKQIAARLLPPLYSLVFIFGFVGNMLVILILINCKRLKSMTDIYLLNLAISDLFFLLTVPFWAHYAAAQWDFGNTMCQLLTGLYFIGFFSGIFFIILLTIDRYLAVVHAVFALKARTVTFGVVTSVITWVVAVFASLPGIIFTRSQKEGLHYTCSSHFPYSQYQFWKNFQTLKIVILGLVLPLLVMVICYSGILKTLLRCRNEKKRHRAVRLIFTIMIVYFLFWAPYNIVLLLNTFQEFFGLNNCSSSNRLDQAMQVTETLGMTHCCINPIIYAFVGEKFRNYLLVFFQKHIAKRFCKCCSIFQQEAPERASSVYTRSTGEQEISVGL

Tests used:
CCR5 [1] = target: T1, CCR5 (Homo sapiens, UniProt P51681); assay: Inhibition of 125I-MIP-1α binding to CCR5 (CCR5+ CHO cells); conditions: 125I-MIP-1α 200 ng/ml
T1 construct: expressed in transfected cells; host or cells: Chinese hamster ovary (CHO) cells expressing CCR5
Experimental: (§1) In order to determine whether GRL derivatives block the binding of CC-chemokines to CCR5, we conducted a CC-chemokine binding inhibition assay using ^125I-labeled CC-chemokines (^125I-RANTES, ^125I-MIP-1α, and ^125I-MIP-1β) and CCR5 expressing cells.
(§2) CCR5^+ CHO cells were incubated with (A) ^125I-MIP-1α, (B) ^125I-MIP-1β, and (C) ^125I-RANTES (200 ng/ml) in the presence or absence of varying concentrations of CCR5 inhibitors. Data are shown as means ± s.d. of three independent experiments.
(§3) The inhibition of the binding of ^125I-labeled CC-chemokines ([^125I] RANTES, [^125I] MIP-1α, or [^125I] MIP-1β) to CCR5 by various CCR5 inhibitors was measured as previously described. Calcium flux inhibition assays were also performed with CCR5 inhibitors, and were carried out with the Fluo-4 Direct^TM calcium reagent (Invitrogen); assays were conducted as previously described with minor modifications. In brief, CHO-CCR5 cells (5 × 10^5 cells) were exposed to Fluo-4 Direct^TM calcium reagent for 60 min at 37 °C in RPMI containing 5% FCS. Cells were then incubated with the test compound for 30 min at varying concentrations. […] Relative increases in cytosolic Ca^2+ levels after chemokine exposure were determined with flow cytometry (FACSCalibur, BD Biosciences), and IC50 values of cytosolic Ca^2+ mobilization (Ca^2+ flux) were compared with the Ca^2+ flux level in drug-free control samples.

CCR5 [2] = target: T1, CCR5; assay: Inhibition of 125I-MIP-1β binding to CCR5 (CCR5+ CHO cells); conditions: 125I-MIP-1β 200 ng/ml
Experimental: as §1, §2, §3

CCR5 [3] = target: T1, CCR5; assay: Inhibition of 125I-RANTES binding to CCR5 (CCR5+ CHO cells); conditions: 125I-RANTES 200 ng/ml
Experimental: as §1, §2, §3

Maraviroc [MVC] showed an EC50 (CCR5 [1]) of 0.1 nM, an EC50 (CCR5 [2]) of 0.5 nM and an EC50 (CCR5 [3]) of 8.4 nM.
